Our source for the K0.5 and kcat values is paper PMC4708007 (Bioscience Reports, 2015).

Series [1] concerns Nc1nc2c(ncn2[C@@H]2O[C@H](COP(=O)(O)OP(=O)(O)OP(=O)(O)O)[C@@H](O)[C@H]2O)c(=O)[nH]1. The series can be described thus: purified protein. Conditions: pH 8.0; 30.0 °C.
Series [2] relates to Nc1ncnc2c1ncn2[C@@H]1O[C@H](COP(=O)(O)OP(=O)(O)OP(=O)(O)O)[C@@H](O)[C@H]1O. The series can be described thus: purified protein. Conditions: pH 8.0; 30.0 °C.

As to “FtRelA (Francisella tularensis subsp. tularensis SCHU S4)”, in series [1], the K0.5 came out at 800.7 ± 115.6 µM and the catalytic constant (kcat) was determined as 0.0106 s⁻¹. Also, in series [2], the K0.5 was 259 ± 37.2 µM and the kcat is 0.00946 s⁻¹.

A word on the kcat: it is the maximal rate divided by the concentration of active sites.
